Compound potency records, mixed from different reports. Data source: NIAID ChemDB in PubChem.

All rows: whole-cell or culture tests; species: HIV-1; read by: p24; read-out: EC50

An empty or dashed field is not shown. ECn: concentration that inhibits the pathogen or its effect by n%. Conditions beyond the fields shown may differ between rows.

compound,cell line,strain,mutations,result
Nc1ccn([C@H]2CC[C@@H](CO)O2)c(=O)n1,MT-2,RT P119S V179D L214F,RT-P119S V179D L214F,0.85 µM
Cc1ccnc2c1NC(=O)c1cccnc1N2C1CC1,MT-2,NL4-3 WT,-,0.017 µM
CC(C)(C)NC(=O)[C@@H]1C[C@@H]2CCCC[C@@H]2CN1C[C@@H](O)[C@H](Cc1ccccc1)NC(=O)[C@H](CC(N)=O)NC(=O)c1ccc2ccccc2n1,MT-4,NL4-3,PR-L10R M46I,<0.025 µM
c1cc(CN2CCCNCCNCCCNCC2)ccc1CN1CCCNCCNCCCNCC1,PBMC,SW12 CLADE C X4,-,<0.5 µM
CC(C)c1nc(CN(C)C(=O)N[C@H](C(=O)N[C@@H](Cc2ccccc2)C[C@H](O)[C@H](Cc2ccccc2)NC(=O)OCc2cncs2)C(C)C)cs1,MT-4,NL4-3,PR-D30N,<0.01 µM
Cc1cn([C@H]2C[C@H](N=[N+]=[N-])[C@@H](CO)O2)c(=O)[nH]c1=O,PBL,CLADE A,-,0.001 µM
O=c1[nH]cnc2c1ncn2[C@H]1CC[C@@H](CO)O1,MT-4,IIIB BCH-189-resistant (RT M184V),RT-M184V,70 µM
O=C1N(Cc2ccc(CO)cc2)[C@H](Cc2ccccc2)[C@H](O)[C@@H](O)[C@@H](Cc2ccccc2)N1Cc1ccc(CO)cc1,PBMC,A012D POST AZT,-,0.07 µM
CCO/N=C(\c1ccc(Br)cc1)C1CCN(C2(C)CCN(C(=O)c3c(C)cc[n+]([O-])c3C)CC2)CC1,PBMC,BAL(G) R5 CLADE B,-,0.02 µM
COC(=O)[C@H](C)NP(=O)(OC[C@@H]1C=C[C@H](n2cc(C)c(=O)[nH]c2=O)O1)Oc1ccc(Br)cc1,PBMC,Y270-7 Clinical isolate ZDV-resistant,RT-M41W Y188L T215N,0.009 µM
Cc1cc(C)c(-n2nnnc2SCC(=O)Nc2ccc(S(N)(=O)=O)cc2)c(C)c1,MT-4,-,-,<10 µM
Nc1ncnc2c1ncn2[C@@H]1O[C@H](CO)C[C@@H]1F,MT-2,RT A62V/V75I/F77L/F116Y/Q151M,RT-A62V V75I F77L F116Y Q151M,14 µM
CC(C)Nc1cccnc1N1CCN(C(=O)c2cc3cc(NS(C)(=O)=O)ccc3[nH]2)CC1,PBMC,6 clinical isolates AZT-resistant,-,<0.1 µM
Cc1cc(C)c(-n2nnnc2SCC(=O)Nc2ccc(Cl)cc2F)c(C)c1,MT-4,-,-,<10 µM
Nc1nc(=O)n([C@H]2CO[C@@H](CO)S2)cc1F,CEM,IIIB,-,0.3 µM
O=c1[nH]cnc2c1ncn2[C@H]1CC[C@@H](CO)O1,PBMC,8791 CLADE A CLADE A,-,1.42 µM
COC(=O)[C@H](C)NP(=O)(OC[C@@H]1C=C[C@H](n2cc(C)c(=O)[nH]c2=O)O1)Oc1ccc(Br)cc1,PBMC,X267-2 NRTI resistant,RT-M41L T215Y,0.0002 µM
O=c1[nH]cnc2c1ncn2[C@H]1CC[C@@H](CO)O1,H9,IIIB,-,0.08 µM
CCc1cc(NCc2nc3c(Cl)ccc(Cl)c3o2)c(=O)[nH]c1C,MT-4,NL4-3,RT-L100I,0.2 µM
S=C(NCCc1cccs1)Nc1ccc(Br)cn1,PBMC,R416-10 Clinical isolate NRTI-resistant,RT-M41L T215Y,0.0011 µM
Nc1nc(=O)n([C@@H]2CO[C@H](CO)S2)cc1F,MT-4,IIIB,-,3 µM
Nc1ccn([C@H]2CC[C@@H](CO)O2)c(=O)n1,MT-4,263)(ddC,-,4.8 µM
C[C@H](Cn1cnc2c(N)ncnc21)OCP(=O)(O)O,MT-2,G691-2 AZT-resistant (RT D67N K70R T215Y K219Q),RT-D67N K70R T215Y K219Q,0.65 µM
CC(C)CN(C[C@@H](O)[C@H](Cc1ccccc1)NC(=O)[C@H](CC(N)=O)NC(=O)c1ccc2ccccc2n1)C(=O)NC(C)(C)C,MT-4,NL4-3,PR-L63P V82T,<0.2 µM
Cc1cc(C)c(-n2nnnc2SCC(=O)Nc2ccc(S(N)(=O)=O)cc2Cl)c(C)c1,MT-4,-,-,<10 µM
CC(=O)N1CCC(C(=O)N(CCCN2CCC(Cc3ccc(C(N)=O)cc3)CC2)c2ccc(C)c(Cl)c2)CC1,PBMC,HHA R5 clinical isolate,-,0.00055 µM
O=c1[nH]cnc2c1ncn2[C@@H]1O[C@H](CO)C[C@@H]1F,MT-2,P119S(RT-P119S),RT-P119S,15 µM
O=c1[nH]cnc2c1ncn2[C@H]1CC[C@@H](CO)O1,PBMC,XM-ABC-resistant,RT-K65R L74V M184V Y115F,<38 µM
CCC[C@@]1(CCc2ccccc2)CC(O)=C([C@H](CC)c2cccc(NS(=O)(=O)c3ccc(C(F)(F)F)cn3)c2)C(=O)O1,PBMC,Isolate UJ00009,-,<0.32 µM
Cc1cn([C@H]2C[C@H](N=[N+]=[N-])[C@@H](CO)O2)c(=O)[nH]c1=O,PBMC,G704-2 Clinical isolate ZDV-resistant,RT-M41L D67N K70R L210W T215Y,1.8 µM
O=c1[nH]cnc2c1ncn2[C@H]1CC[C@@H](CO)O1,MT-2,RT P119S L214F,RT-P119S L214F,1.5 µM
Nc1ccn([C@@H]2CS[C@H](CO)O2)c(=O)n1,PBMC,7324-1 NRTI resistant recombinant,RT-M41L D67N T69N K70R T215F K219E,0.8 µM
Cc1cn([C@H]2C=C[C@@H](CO)O2)c(=O)[nH]c1=O,MT-2,-,RT-T69G,0.266 µM
CC(Sc1nnnn1-c1cccc2ccccc12)C(=O)Nc1ccccc1Cl,MT-4,-,-,<10 µM
Cc1cn([C@H]2C[C@H](N=[N+]=[N-])[C@@H](CO)O2)c(=O)[nH]c1=O,PBMC,XM-AZT-resistant,RT-M41L D67N K70R T215Y K219Q,<6.7 µM

A second listing of 3 rows from above:

{"compound": "CC(C)CN(C[C@@H](O)[C@H](Cc1ccccc1)NC(=O)[C@H](CC(N)=O)NC(=O)c1ccc2ccccc2n1)C(=O)NC(C)(C)C", "cell line": "MT-4", "strain": "NL4-3", "mutations": "PR-L63P V82T", "result": "<0.2 µM"}
{"compound": "O=c1[nH]cnc2c1ncn2[C@H]1CC[C@@H](CO)O1", "cell line": "PBMC", "strain": "XM-ABC-resistant", "mutations": "RT-K65R L74V M184V Y115F", "result": "<38 µM"}
{"compound": "Nc1ccn([C@H]2CC[C@@H](CO)O2)c(=O)n1", "cell line": "MT-2", "strain": "RT P119S V179D L214F", "mutations": "RT-P119S V179D L214F", "result": "0.85 µM"}